Results of unrelated studies side by side (data: NIAID ChemDB).

Common to all: tests in culture; species: Candida albicans

ECn is the concentration giving n% inhibition of infection, replication or growth. An empty or dashed field is not shown. Rows are shuffled and stem from different studies. MIC50, MIC90 and the like: level of inhibition, or share of isolates inhibited.

SMILES | read-out | strain | method | result
CO[C@@H]1[C@H]2OC(C)(C)O[C@H]2O[C@@H]1C1=NOC(C)C1C(=O)O | MIC |  |  | >50 µg/mL
O=C(CSC(=S)N1CCCC1)N1N=C(c2cccs2)CC1c1ccccc1 | MIC | Clinical isolates |  | 250 µg/mL
O=C1C(Nc2ccc(Br)cc2)=C(S(=O)c2ccccc2)C(=O)c2ccccc21 | EC50 |  |  | >0.2 µg/mL
CN[C@@H]1[C@H](O[C@@H]2OC[C@@H](O)[C@H](O)[C@H]2O)[C@@H](O)[C@H](O[C@H]2c3cc(C)c(C(=O)N[C@H](C)C(=O)O)c(O)c3-c3c(cc4c(c3O)C(=O)c3cc(OC)c(I)c(O)c3C4=O)[C@@H]2O)O[C@@H]1C | MIC | A9540 |  | >100 µg/mL
COc1ccc(CC2CC([C@H]3O[C@@H]4OC(C)(C)O[C@@H]4[C@H]3OC)=NO2)cc1 | MIC |  |  | >50 µg/mL
N=C(N)c1ccc2nc(-c3ccc(-c4nc5ccc(C(=N)N)cc5[nH]4)[nH]3)[nH]c2c1 | MFC | ATCC 76615 |  | 0.78 µg/mL
COCCNC(=O)[C@H]1[C@@H]2C[C@@H](O[C@@H]3O[C@H](C)[C@@H](O)[C@H](N)[C@@H]3O)/C=C/C=C/C=C/C=C/C=C/C=C/C=C/[C@H](C)[C@@H](O)[C@H](C)[C@H](C)OC(=O)C[C@H](O)C[C@H](O)[C@@H](O)CC[C@H](O)C[C@H](O)C[C@](O)(C[C@@H]1O)O2 | MIC | 3 strains |  | 1.6 µg/mL
CC[C@@H]([C@H](C)O)n1ncn(-c2ccc(N3CCN(c4ccc(OC[C@@H]5CO[C@@](Cn6cncn6)(c6ccc(F)cc6F)C5)cc4)CC3)cc2)c1=O | MIC50 |  |  | 0.031 µg/mL
CCC1C=C(c2ccc(Br)cc2)C(=O)O1 | MIC | ATCC 44859 |  | 62.5 µM
O=C1C=C(S(=O)c2ccccc2)C(=O)c2ccccc21 | EC50 |  |  | >0.2 µg/mL
Cc1cc2c(c(O)c1C(=O)NCC(=O)O)-c1c(cc3c(c1O)C(=O)c1cc(OCC(N)=O)cc(O)c1C3=O)[C@H](O)[C@H]2O[C@@H]1O[C@H](C)[C@H](O)[C@H](O[C@@H]2OC[C@@H](O)[C@H](O)[C@H]2O)[C@H]1O | MIC | A9540 |  | 50 µg/mL
Cc1ccc(C2CC(c3cccs3)=NN2C(=O)CSC(=S)N2CCCCC2)cc1 | MIC | Clinical isolates |  | 250 µg/mL
COC(=O)C1OC2(CCCC(OC(C)=O)C(C)C/C=C/c3ccccc3)OC(C(=O)O)(C(OC(=O)CCCCCC/C=C/c3ccccc3)C2O)C1(O)C(=O)O | MIC | 427 |  | 12.5 µg/mL
O=C(CSC(=S)N1CCCCC1)N1N=C(c2cccs2)CC1c1ccccc1 | MIC | Clinical isolates |  | 500 µg/mL
COc1ccc(NC2=C(S(=O)c3ccccc3)C(=O)c3ccccc3C2=O)cc1 | EC50 |  |  | >0.2 µg/mL
CC(=O)C1CC([C@H]2O[C@@H]3OC(C)(C)O[C@@H]3[C@H]2OCc2ccccc2)=NO1 | MIC |  |  | >50 µg/mL
COc1cc(/C=C/C=C/C=C/C2C=CC=N2)oc(=O)c1.COc1cc(/C=C/C=C/C=C/C2C=CC=N2)oc(=O)c1 | MIC |  | agar | >100 µM
CCCCCC1C=C(c2cccc(Cl)c2)C(=O)O1 | MIC | ATCC 44859 |  | >125 µM
CCOC(=O)C1CC([C@H]2O[C@@H]3OC(C)(C)O[C@@H]3[C@H]3OC(C)(C)O[C@H]32)=NO1 | MIC |  |  | >50 µg/mL
CCCCCCCCCCCCCC[C@@H](N)C(=O)N[C@H](C(=O)O)C1O[C@@H](n2ccc(=O)[nH]c2=O)[C@H](O)[C@@H]1O | MIC | 124 (nikkomycin-S) |  | >320 µg/mL
CC1C=C(c2ccc(Br)c(Br)c2)C(=O)O1 | MIC | ATCC 44859 |  | 31.25 µM
CN[C@@H]1[C@H](O[C@@H]2OC[C@@H](O)[C@H](O)[C@H]2O)[C@@H](O)[C@H](O[C@H]2c3c(Br)c(C)c(C(=O)N[C@H](C)C(=O)O)c(O)c3-c3c(cc4c(c3O)C(=O)c3cc(OC)cc(O)c3C4=O)[C@@H]2O)O[C@@H]1C | MIC | A9540 |  | >100 µg/mL
COc1ccc(C2Sc3ccccc3C2CO)c(O)c1 | MIC |  |  | 100 µg/mL
CCCCn1c(-c2ccccc2)nc(=S)c(C(=O)OCC)c1O | MIC |  |  | >100 µg/mL
Cc1nn(-c2ccc(S(=O)(=O)/N=c3\scc(-c4ccccc4)n3-c3ccc(F)cc3)cc2)c(=O)c2c(C)noc12 | MIC | ATCC 10231 | broth dilution | ≥200 µg/mL
COc1ccc(C2CC(c3cccs3)=NN2C(=O)CSC(=S)N2CCCCC2)cc1 | MIC | Clinical isolates |  | 250 µg/mL
Cc1ccc(SC2=C(Sc3ccc(C)cc3)C(=O)c3ccccc3C2=O)cc1 | EC50 |  |  | >0.2 µg/mL
CCCCCOc1ccc(-c2ccc(-c3ccc(C(=O)N[C@H]4C[C@@H](O)[C@@H](O)NC(=O)[C@@H]5[C@@H](O)[C@@H](C)CN5C(=O)[C@H]([C@H](C)O)NC(=O)[C@H]([C@H](O)[C@@H](O)c5ccc(O)cc5)NC(=O)[C@@H]5C[C@@H](O)CN5C(=O)[C@H]([C@H](C)O)NC4=O)cc3)cc2)cc1 | MIC | 4 isolates |  | 0.08 µg/mL
CCC(C)CC(C)CCCCCCCCC(=O)NC1C[C@H](O)[C@@H](O)NC(=O)[C@@H]2C[C@@H](O)CN2C(=O)[C@H]([C@H](O)CC(N)=O)NC(=O)[C@H](C(O)[C@H](O)c2ccc(O)cc2)NC(=O)[C@@H]2C[C@@H](O)CN2C(=O)[C@H]([C@@H](C)O)NC1=O | MFC | MY1750 |  | 4 µg/mL
CN(C)c1ccc(-c2sc3ccccc3c2CO)cc1 | MIC |  |  | 25 µg/mL
COC(=O)C1CC([C@H]2O[C@@H]3OC(C)(C)O[C@@H]3[C@H]2OCc2ccccc2)=NO1 | MIC |  |  | >50 µg/mL
Cc1nn(C(=S)Nc2ccc(F)cc2)c(=O)c2c(C)noc12 | MIC | ATCC 10231 | broth dilution | 50 µg/mL
OCC1c2ccccc2SC1c1cc(Cl)ccc1O | MIC |  |  | 50 µg/mL
CN[C@@H]1[C@H](O[C@@H]2OC[C@@H](O)[C@H](O)[C@H]2O)[C@@H](O)[C@H](O[C@H]2c3c(N)c(C)c(C(=O)N[C@H](C)C(=O)O)c(O)c3-c3c(cc4c(c3O)C(=O)c3cc(OC)cc(O)c3C4=O)[C@@H]2O)O[C@@H]1C | MIC | A9540 |  | >100 µg/mL
CCOC(=O)c1c(O)n(CCO)c(-c2ccccc2)nc1=S | MIC |  |  | 100 µg/mL
COc1ccc(C2CC(c3cccs3)=NN2C(=O)CSC(=S)N2CCCC2)cc1 | MIC | Clinical isolates |  | 250 µg/mL
CCOC(=O)c1c(O)n(Cc2ccccc2)c(-c2ccccc2)nc1=S | MIC |  |  | 100 µg/mL
CO[C@@H]1[C@H]2OC(C)(C)O[C@H]2O[C@@H]1C1=NOC(Cc2ccc(O)cc2)C1 | MIC |  |  | >50 µg/mL
CCC(C)CC(C)CCCCCCCCC(=O)NC1CCCNC(=O)[C@@H]2[C@@H](O)CCN2C(=O)[C@H]([C@H](O)CC(N)=O)NC(=O)[C@H](C(O)[C@H](O)c2ccc(O)cc2)NC(=O)[C@@H]2C[C@@H](O)CN2C(=O)[C@H]([C@@H](C)O)NC1=O | MFC | MY1055 |  | 1 µg/mL
OCC1c2ccccc2SC1c1ccccc1O | MIC |  |  | 12.5 µg/mL
CC(C)[C@@H](C)C1OC1[C@@H](C)C1[C@@H](O)C[C@]2(O)C3=CC=C4C[C@@H](O)CC[C@]4(C)C3[C@H](O)C(=O)[C@]12C | MIC |  | agar | 3.3 µM
Cc1ccc(C2CC(c3cccs3)=NN2C(=O)CSC(=S)N2CCCC2)cc1 | MIC | Clinical isolates |  | 250 µg/mL
CCC(C)n1ncn(-c2ccc(N3CCN(c4ccc(OC[C@H]5CO[C@](Cn6cncn6)(c6ccc(Cl)cc6Cl)O5)cc4)CC3)cc2)c1=O | MIC90 |  |  | 0.25 µg/mL
CCC(C)CC(C)CCCCCCCCC(=O)N[C@H]1C[C@H](O)[C@@H](O)NC(=O)[C@@H]2[C@@H](O)[C@@H](O)CN2C(=O)[C@H]([C@H](O)CC(N)=O)NC(=O)[C@H](C(O)[C@H](O)c2ccc(O)cc2)NC(=O)[C@@H]2C[C@@H](O)CN2C(=O)[C@H]([C@@H](C)O)NC1=O | MFC | MY1750 |  | 1 µg/mL
CO[C@@H]1[C@H]2OC(C)(C)O[C@H]2O[C@@H]1C1=NOC(OC(C)=O)C1 | MIC |  |  | >50 µg/mL
O=C(CSC(=S)N1CCCC1)N1N=C(c2cccs2)CC1c1ccc(F)cc1 | MIC | Clinical isolates |  | 250 µg/mL
CCC(C)CC(C)CCCCCCCCC(=O)N[C@H]1C[C@@H](O)[C@H](NCCN)NC(=O)[C@@H]2[C@@H](O)CCN2C(=O)[C@H]([C@H](O)CCN)NC(=O)[C@H]([C@H](O)[C@@H](O)c2ccc(O)cc2)NC(=O)[C@@H]2C[C@@H](O)CN2C(=O)[C@H]([C@@H](C)O)NC1=O | MIC | Isolate 489 (AMB FCZ 5FC-susceptible) |  | 0.25 µg/mL
Cc1nn(C(=S)Nc2ccc(Cl)cc2)c(=O)c2c(C)noc12 | MIC | ATCC 10231 | broth dilution | 50 µg/mL
CC1(C)O[C@H]2[C@@H](O1)[C@@H](C1=NOC(CO)C1)O[C@@H]1OC(C)(C)O[C@@H]12 | MIC |  |  | >50 µg/mL
Cc1ccc(Sc2c(S(=O)c3ccccc3)c(O)c3ccccc3c2O)cc1 | EC50 |  |  | >0.2 µg/mL
Cc1nn(C(=S)Nc2ccccc2)c(=O)c2c(C)noc12 | MIC | ATCC 10231 | broth dilution | ≥200 µg/mL
CC1C=C(C23CC4CC(CC(C4)C2)C3)C(=O)O1 | MIC | ATCC 44859 |  | >125 µM

7 of the rows above, restated:

| SMILES | read-out | strain | method | result |
|---|---|---|---|---|
| CC1C=C(c2ccc(Br)c(Br)c2)C(=O)O1 | MIC | ATCC 44859 |  | 31.25 µM |
| CCCCCCCCCCCCCC[C@@H](N)C(=O)N[C@H](C(=O)O)C1O[C@@H](n2ccc(=O)[nH]c2=O)[C@H](O)[C@@H]1O | MIC | 124 (nikkomycin-S) |  | >320 µg/mL |
| CC1C=C(C23CC4CC(CC(C4)C2)C3)C(=O)O1 | MIC | ATCC 44859 |  | >125 µM |
| CC(=O)C1CC([C@H]2O[C@@H]3OC(C)(C)O[C@@H]3[C@H]2OCc2ccccc2)=NO1 | MIC |  |  | >50 µg/mL |
| COc1ccc(CC2CC([C@H]3O[C@@H]4OC(C)(C)O[C@@H]4[C@H]3OC)=NO2)cc1 | MIC |  |  | >50 µg/mL |
| CO[C@@H]1[C@H]2OC(C)(C)O[C@H]2O[C@@H]1C1=NOC(Cc2ccc(O)cc2)C1 | MIC |  |  | >50 µg/mL |
| COCCNC(=O)[C@H]1[C@@H]2C[C@@H](O[C@@H]3O[C@H](C)[C@@H](O)[C@H](N)[C@@H]3O)/C=C/C=C/C=C/C=C/C=C/C=C/C=C/[C@H](C)[C@@H](O)[C@H](C)[C@H](C)OC(=O)C[C@H](O)C[C@H](O)[C@@H](O)CC[C@H](O)C[C@H](O)C[C@](O)(C[C@@H]1O)O2 | MIC | 3 strains |  | 1.6 µg/mL |